Experimental data from patent US20240109955A1 (published 2024).

target: SARS-CoV-2 spike protein, original Wuhan strain (WA1) (SARS-CoV-2, UniProt P0DTC2 14-1273); test: cell-based or functional assay

Row | Binder | IC50, pseudovirus neutralization [µg/mL] | IC80, pseudovirus neutralization [µg/mL]
1 | E12 (antibody, V domains shown) VH: EVQLVESGGGLIQPGGSLRLSCAASGVIVSYNYMNWVRQAPGKGLEWVSVIYSGGSTFYADSVRGRFTISRDNSKNTLYLQMNSLRAEDTAVYYCARDLGPAGAFDIWGLGTMVTVSS VL: EIVLTQSPGTLSLSPGETATLSCRASQSFSSDLAWYQQKPGQAPRLLIYGASSRATGIPDRFSGSGSGTDFTLTISRLEPADFAVYYCQQYGSSPPVTFGGGTKVEIK [E12, listing 1 of 2 here] | 0.0778 | 0.118
2 | B8 (antibody, V domains shown) VH: EVQLVESGGALIQPGGSLRLSCAASGIIVSANYMSWVRQAPGKGLEWVSVIYSGGSTFYADSVKGRFTISRDNSKNTLYLEMNSLRAEDTAVYYCARDAPILGVSDWGQGTLVTVSS VL: EIVMTQSPAILSVSPGERATLSCRASQSVAINLAWYQQKPGQAPRLLIYAASSRATGIPGRFSGSGSETNFTLTISSLQSGDFAVYYCQQYITWPPSYTFGQGTKLEIK [B8, listing 1 of 2 here] | 0.0719 | 0.0841

target: SARS-CoV-2 spike protein, Omicron sublineage BQ.1 (SARS-CoV-2, UniProt P0DTC2 14-1273); test: cell-based or functional assay

Row | Binder | IC50, pseudovirus neutralization [nM] | IC80, pseudovirus neutralization [nM]
3 | A23-58H/A23-58L93VGLTG (antibody, V domains shown) VH: QMQLVQSGPEVKKPGTSVKVSCKASGFTFTSSAVQWVRQRQRLEWIGWIVVGSGNTNYAQKFQERVTITRDMSTSTAYMELSSLRSEDTAVYYCAAPNCSNVVCYDGFDIWGQGTMVTVSS VL: EIVLTQSPGTLSLSPGERATLSCRASQSVSSSYLAWYQQKPGQAPRLLIYSASSRATGIPDRFSGSGSGTDFTLTISRLEPEDFAVYFCQQYVGLTGWTFGQGTKVEIK | 23.5 | 87.7
4 | MX1055 (other) chain 1: EIVMTQSPAILSVSPGERATLSCRASQSVAINLAWYQQKPGQAPRLLIYAASSRATGIPGRFSGSGSETNFTLTISSLQSGDFAVYYCQQYITWPPSYTFGQGTKLEIKGGSSGDTVMTQSPLSLPVTPGEPASISCRSSQSLLNSNGYNYLDWYVQKPGQSPQLLIYLGSNRASGVPDRFSGSGSGTDFTLKISRVEAEDVGVYYCMQPLQTPLFTFGPGTKVEIKGGGGSGGSGSGGGGSASGSGQVTLRESGPALVKPTQTLTLTCTFSGFSLSTRGVCVSWIRQPPGKALEWLAFIDWDDDKYYNTSLKTRLTISKDTSKNQVVLTMTNVHPVDTATYYCARISSHHGSSWCTTFDYWGQGALVTVSAGGSSGEVQLVESGGALIQPGGSLRLSCAASGIIVSANYMSWVRQAPGKGLEWVSVIYSGGSTFYADSVKGRFTISRDNSKNTLYLEMNSLRAEDTAVYYCARDAPILGVSDWGQGTLVTVSSASGGSGDKTHTCPPCPAPELLGGPSVFLFPPKPKDTLMISRTPEVTCVVVDVSHEDPEVKFNWYVDGVEVHNAKTKPREEQYNSYVVSVLTVLHQDWLNGKEYKCKVSNKALPAPIEKTISKAKGQPREPQVYTLPPCRDELTKNQVSLWCLVKGFYPSDIAVEWESNGQPENNYKTTPPVLDSDGSFFKKLTVDKSRWQQGNVFSCSVLHEALHSHYTQKSLSLSPG chain 2: DTVMTQSPLSLPVTPGEPASISCRSSQSLLNSNGYNYLDWYVQKPGQSPQLLIYLGSNRASGVPDRFSGSGSGTDFTLKISRVEAEDVGVYYCMQPLQTPLFTFGPGTKVEIKGGSSGQTVVTQEPSFSVSPGGTVTLTCGLSSGSVSTAYFPSWYQQTPGQAPRTLIYGTNTRSSGVPDRFSGSILGNKAALTITGAQADDESDYYCVLYMGRGIVVFGGGTKLTVLGGGGSGGSGSGGGGSASGSGQVQLVESGGGVVQPGRSLRLSCAASGFTLSSYGMHWVRQAPGKGLEWVAVISYDGSNKYYVDSVKGRFTISRDNSKNTLYLQMNSLRAEDTAVYYCRWAYWELLPDYYYGMDVWGQGTTVTVSSGGSSGQVTLRESGPALVKPTQTLTLTCTFSGFSLSTRGVCVSWIRQPPGKALEWLAFIDWDDDKYYNTSLKTRLTISKDTSKNQVVLTMTNVHPVDTATYYCARISSHHGSSWCTTFDYWGQGALVTVSAASGGSGDKTHTCPPCPAPELLGGPSVFLFPPKPKDTLMISRTPEVTCVVVDVSHEDPEVKFNWYVDGVEVHNAKTKPREEQYNSYVVSVLTVLHQDWLNGKEYKCKVSNKALPAPIEKTISKAKGQPREPQVCTLPPSRDELTKNQVSLSCAVKGFYPSDIAVEWESNGQPENNYKTTPPVLDSDGSFFLVSKLTVDKSRWQQGNVFSCSVLHEALHSHYTQKSLSLSPG | 16 | 60.6
5 | MX1089 (other) chain 1: QTVVTQEPSFSVSPGGTVTLTCGLSSGSVSTAYFPSWYQQTPGQAPRTLIYGTNTRSSGVPDRFSGSILGNKAALTITGAQADDESDYYCVLYMGRGIVVFGGGTKLTVLGGSSGEIVMTQSPAILSVSPGERATLSCRASQSVAINLAWYQQKPGQAPRLLIYAASSRATGIPGRFSGSGSETNFTLTISSLQSGDFAVYYCQQYITWPPSYTFGQGTKLEIKGGGGSGGSGSGGGGSASGSGEVQLVESGGALIQPGGSLRLSCAASGIIVSANYMSWVRQAPGKGLEWVSVIYSGGSTFYADSVKGRFTISRDNSKNTLYLEMNSLRAEDTAVYYCARDAPILGVSDWGQGTLVTVSSGGSSGQVQLVESGGGVVQPGRSLRLSCAASGFTLSSYGMHWVRQAPGKGLEWVAVISYDGSNKYYVDSVKGRFTISRDNSKNTLYLQMNSLRAEDTAVYYCRWAYWELLPDYYYGMDVWGQGTTVTVSSASGGSGDKTHTCPPCPAPELLGGPSVFLFPPKPKDTLMISRTPEVTCVVVDVSHEDPEVKFNWYVDGVEVHNAKTKPREEQYNSYVVSVLTVLHQDWLNGKEYKCKVSNKALPAPIEKTISKAKGQPREPQVYTLPPCRDELTKNQVSLWCLVKGFYPSDIAVEWESNGQPENNYKTTPPVLDSDGSFFKKLTVDKSRWQQGNVFSCSVLHEALHSHYTQKSLSLSPG chain 2: DTVMTQSPLSLPVTPGEPASISCRSSQSLLNSNGYNYLDWYVQKPGQSPQLLIYLGSNRASGVPDRFSGSGSGTDFTLKISRVEAEDVGVYYCMQPLQTPLFTFGPGTKVEIKGGSSGEIVLTQSPGTLSLSPGERATLSCRASQSVSSSYLAWYQQKPGQAPRLLIYSASSRATGIPDRFSGSGSGTDFTLTISRLEPEDFAVYFCQQYVGLTGWTFGQGTKVEIKGGGGSGGSGSGGGGSASGSGQMQLVQSGPEVKKPGTSVKVSCKASGFTFTSSAVQWVRQRQRLEWIGWIVVGSGNTNYAQKFQERVTITRDMSTSTAYMELSSLRSEDTAVYYCAAPNCSNVVCYDGFDIWGQGTMVTVSSGGSSGQVTLRESGPALVKPTQTLTLTCTFSGFSLSTRGVCVSWIRQPPGKALEWLAFIDWDDDKYYNTSLKTRLTISKDTSKNQVVLTMTNVHPVDTATYYCARISSHHGSSWCTTFDYWGQGALVTVSAASGGSGDKTHTCPPCPAPELLGGPSVFLFPPKPKDTLMISRTPEVTCVVVDVSHEDPEVKFNWYVDGVEVHNAKTKPREEQYNSYVVSVLTVLHQDWLNGKEYKCKVSNKALPAPIEKTISKAKGQPREPQVCTLPPSRDELTKNQVSLSCAVKGFYPSDIAVEWESNGQPENNYKTTPPVLDSDGSFFLVSKLTVDKSRWQQGNVFSCSVLHEALHSHYTQKSLSLSPG | 2.92 | 7.27
6 | E12 (antibody, V domains shown) VH: EVQLVESGGGLIQPGGSLRLSCAASGVIVSYNYMNWVRQAPGKGLEWVSVIYSGGSTFYADSVRGRFTISRDNSKNTLYLQMNSLRAEDTAVYYCARDLGPAGAFDIWGLGTMVTVSS VL: EIVLTQSPGTLSLSPGETATLSCRASQSFSSDLAWYQQKPGQAPRLLIYGASSRATGIPDRFSGSGSGTDFTLTISRLEPADFAVYYCQQYGSSPPVTFGGGTKVEIK [E12, listing 2 of 2 here] | 11.9 | 40.9
7 | B8 (antibody, V domains shown) VH: EVQLVESGGALIQPGGSLRLSCAASGIIVSANYMSWVRQAPGKGLEWVSVIYSGGSTFYADSVKGRFTISRDNSKNTLYLEMNSLRAEDTAVYYCARDAPILGVSDWGQGTLVTVSS VL: EIVMTQSPAILSVSPGERATLSCRASQSVAINLAWYQQKPGQAPRLLIYAASSRATGIPGRFSGSGSETNFTLTISSLQSGDFAVYYCQQYITWPPSYTFGQGTKLEIK [B8, listing 2 of 2 here] | 15 | 49.6
8 | MX1069 (other) chain 1: QTVVTQEPSFSVSPGGTVTLTCGLSSGSVSTAYFPSWYQQTPGQAPRTLIYGTNTRSSGVPDRFSGSILGNKAALTITGAQADDESDYYCVLYMGRGIVVFGGGTKLTVLGGSSGEIVLTQSPGTLSLSPGETATLSCRASQSFSSDLAWYQQKPGQAPRLLIYGASSRATGIPDRFSGSGSGTDFTLTISRLEPADFAVYYCQQYGSSPPVTFGGGTKVEIKGGGGSGGSGSGGGGSASGSGEVQLVESGGGLIQPGGSLRLSCAASGVIVSYNYMNWVRQAPGKGLEWVSVIYSGGSTFYADSVRGRFTISRDNSKNTLYLQMNSLRAEDTAVYYCARDLGPAGAFDIWGLGTMVTVSSGGSSGQVQLVESGGGVVQPGRSLRLSCAASGFTLSSYGMHWVRQAPGKGLEWVAVISYDGSNKYYVDSVKGRFTISRDNSKNTLYLQMNSLRAEDTAVYYCRWAYWELLPDYYYGMDVWGQGTTVTVSSASGGSGDKTHTCPPCPAPELLGGPSVFLFPPKPKDTLMISRTPEVTCVVVDVSHEDPEVKFNWYVDGVEVHNAKTKPREEQYNSYVVSVLTVLHQDWLNGKEYKCKVSNKALPAPIEKTISKAKGQPREPQVYTLPPCRDELTKNQVSLWCLVKGFYPSDIAVEWESNGQPENNYKTTPPVLDSDGSFFKKLTVDKSRWQQGNVFSCSVLHEALHSHYTQKSLSLSPG chain 2: EIVLTQSPGTLSLSPGETATLSCRASQSFSSDLAWYQQKPGQAPRLLIYGASSRATGIPDRFSGSGSGTDFTLTISRLEPADFAVYYCQQYGSSPPVTFGGGTKVEIKGGSSGDTVMTQSPLSLPVTPGEPASISCRSSQSLLNSNGYNYLDWYVQKPGQSPQLLIYLGSNRASGVPDRFSGSGSGTDFTLKISRVEAEDVGVYYCMQPLQTPLFTFGPGTKVEIKGGGGSGGSGSGGGGSASGSGQVTLRESGPALVKPTQTLTLTCTFSGFSLSTRGVCVSWIRQPPGKALEWLAFIDWDDDKYYNTSLKTRLTISKDTSKNQVVLTMTNVHPVDTATYYCARISSHHGSSWCTTFDYWGQGALVTVSAGGSSGEVQLVESGGGLIQPGGSLRLSCAASGVIVSYNYMNWVRQAPGKGLEWVSVIYSGGSTFYADSVRGRFTISRDNSKNTLYLQMNSLRAEDTAVYYCARDLGPAGAFDIWGLGTMVTVSSASGGSGDKTHTCPPCPAPELLGGPSVFLFPPKPKDTLMISRTPEVTCVVVDVSHEDPEVKFNWYVDGVEVHNAKTKPREEQYNSYVVSVLTVLHQDWLNGKEYKCKVSNKALPAPIEKTISKAKGQPREPQVCTLPPSRDELTKNQVSLSCAVKGFYPSDIAVEWESNGQPENNYKTTPPVLDSDGSFFLVSKLTVDKSRWQQGNVFSCSVLHEALHSHYTQKSLSLSPG | 0.83 | 3.07
9 | E8 (antibody, V domains shown) VH: QVTLRESGPALVKPTQTLTLTCTFSGFSLSTRGVCVSWIRQPPGKALEWLAFIDWDDDKYYNTSLKTRLTISKDTSKNQVVLTMTNVHPVDTATYYCARISSHHGSSWCTTFDYWGQGALVTVSA VL: DTVMTQSPLSLPVTPGEPASISCRSSQSLLNSNGYNYLDWYVQKPGQSPQLLIYLGSNRASGVPDRFSGSGSGTDFTLKISRVEAEDVGVYYCMQPLQTPLFTFGPGTKVEIK | 124 | 5190
